Consider 65 compounds from PubChem BioAssay AID602233 (National Center for Advancing Translational Sciences (NCATS), 2012).

SMILES strings stand for the structures. Only a part is listed here, and it is no random draw. Activity calls are given as the source filed them. The call rests on the fitted dose curve; in most records, active means well fitted inhibition curve with a large enough effect; inconclusive means small, poorly fitted or top-dose-only effect; inactive means no such curve, though single readings can be large or run the other way.

The target of this assay is Phosphoglycerate kinase, glycosomal (Trypanosoma brucei brucei) (UniProt P07378). Nature of the assay: qHTS Assay to Find Inhibitors of Phosphoglycerate Kinase. Further: nearly all actives have a fitted effect of over 60% in size. The note with it: PGK/GAPDH coupled, Kinase-Glo luminescence, 60 min; activity change, negative = inhibition: at 57.5 µM (top of the series) unless noted. The text has this:
Several species of the Trypanosomatidae family of parasitic protozoans cause a spectrum of diseases throughout the tropical and subtropical world. Sleeping sickness, caused by two subspecies of Trypanosoma brucei, is endemic to areas of sub-Saharan Africa, while Chagas disease, a manifestation of Trypanosoma cruzi infection, is prevalent throughout Central and South America. In addition, many species of Leishmania are responsible for a range of cutaneous and visceral diseases, causing ulcers, destructive lesions and kalaazar, a lethal infection of the viscera. Collectively, these organisms infect 30 million people worldwide (~500 million live in endemic areas), and account for ~130,000 deaths annually. Given their debilitating and prevalent nature, trypanosomatid parasites impose a heavy medical, economic and social burden on entire populations, primarily in the developing world. The problem is further exacerbated by the fact that existing treatments have progressed little in the past 50 years, and current drugs show high toxicity and poor efficacy. […] Blood-stream stages of T. brucei are entirely dependent on glycolysis as a source of ATP, and the tricarboxylic acid cycle and oxidative phosphorylation are both repressed. Glycolysis in axenically cultured T. cruzi, representing the intracellular pathogenic stage, is also essential for these parasites. […] Previous studies have shown that the glycolytic enzyme, phosphoglycerate kinase (PGK), is a viable target for drugs to kill these parasites. […] NIH Molecular Libraries Probe Production Network [MLPCN] NIH Chemical Genomics Center [NCGC] MLPCN Grant: R03 MH093212 PI Name: Malcolm Walkinshaw, University of Edinburgh
3ul of substrate/PGK buffer (columns 1,2,5-48) are dispensed into Greiner white solid bottom 1536-well assay plates; columns 3-4 receive only TEA buffer as 0x PGK controls. Compounds are then transferred via Kalypsys pin tool equipped with 1536-pin array (10nl slotted pins, V&P Scientific, San Diego, CA). Following addition of compound, 1ul of GAPDH (100nM final concentration, all columns) is added to initiate the reaction (this upstream coupling enzyme is necessary for in-well production of PGK substrate, 1,3-bisphosphoglycerate (1,3-BPG), which is unstable and not commercially available). The plates are then incubated at room temperature for 60 minutes. Kinase-Glo Plus reagent is added (2ul) and plates incubated for 10 minutes, before being transferred to a ViewLux high-throughput CCD imager (PerkinElmer) wherein single end-point measurements of luminescence are acquired using a clear filter. All reagents are diluted in an assay buffer consisting of 100mM TEA (pH 7.6), 5mM MgCl2 and 0.01% Tween-20.
Turning to `CC(C)(C)C(=O)NC(Sc1ccccc1)C(Cl)(Cl)Cl` (stereo not given), the activity change, negative = inhibition was inactive: 2.92%.

With `CCc1cc(O)c([N+](=O)[O-])c(C)c1[N+](=O)[O-]`, the activity change, negative = inhibition is inactive: 6.47%.

Regarding `O=P1(Nc2nc3ccc(Cl)cc3s2)COc2ccccc2O1` (stereo not given), the activity change, negative = inhibition result is “inactive”.

As to `CCOc1ccc(C2=NCC(CBr)S2)cc1` (stereo not given), the activity change, negative = inhibition entry is “inactive”.

With `CC(=O)Nc1ccc([As](=O)(O)O)c(O)c1`, the activity change, negative = inhibition result was “inactive”.

With `CC(=O)Nc1ccc(Oc2c([N+](=O)[O-])cc([N+](=O)[O-])cc2[N+](=O)[O-])cc1`, the activity change, negative = inhibition was inactive: -8.74%.

As for `Cc1ccccc1CN(C)C(=O)COC(=O)C(O)(c1ccccc1)c1ccccc1`, the activity change, negative = inhibition was inactive: -7.61%.

On to `C[C@H]1OP(=O)(Oc2ccccc2)C[C@@H]2O[C@@H]21` (stereo not given in full), for which the activity change, negative = inhibition was inactive: -1.44%.

Turning to `C[C@@H]1C=CCP(=O)(Oc2ccccc2)O1` (stereo not given in full), the activity change, negative = inhibition is inactive: -3.15%.

As to `CC(=O)c1ccc(N2CC2c2ccncc2)cc1` (stereo not given), the activity change, negative = inhibition is inactive: -4.62%.

With `N#C/C(=C\c1ccc(N(CCBr)CCBr)cc1)C(N)=O`, the activity change, negative = inhibition was inactive: -10.2%.

On to `COC(=O)C1(C)COP(=O)(NCc2ccccc2)OC1` (stereo not given), for which the activity change, negative = inhibition is inactive: -4.32%.

Take `O=P1(N(CCCl)CCCl)OCCC2CCCCN21` (stereo not given): the activity change, negative = inhibition is inactive: -0.587%.

As to `c1ccc(-c2nn[nH]n2)c(-c2nn[nH]n2)c1`, the activity change, negative = inhibition is inactive: 5.42%.

For the compound `Cc1ccc(NP(=O)(Oc2cccc(C)c2)Oc2cccc(C)c2)nc1`, the activity change, negative = inhibition was inactive: 1.45%.

Turning to `CCNC(=S)/N=C(\N)N[N+](=O)[O-]`, the activity change, negative = inhibition was inactive: 0.77%.

Turning to `O=C(NC1CCS(=O)(=O)C1)NP(=S)(Oc1ccccc1)Oc1ccccc1` (stereo not given), the activity change, negative = inhibition was inactive: -7.02%.

In the case of `CC(NC(=O)COC(=O)C(O)(c1ccccc1)c1ccccc1)c1ccccc1` (stereo not given), the activity change, negative = inhibition was inactive: -1.21%.

In the case of `Cc1ccccc1OP(=O)(Nc1ccccn1)Oc1ccccc1C`, the activity change, negative = inhibition entry is “inactive”.

Turning to `O=c1c2cc([N+](=O)[O-])ccc2[nH]c2c([N+](=O)[O-])cc([N+](=O)[O-])cc12`, the activity change, negative = inhibition was inactive: -9.64%.

Take `CN(C)C(=O)Oc1noc2ccccc12`: the activity change, negative = inhibition was inactive: -0.834%.

On to `O=C(OC1CN2CCC1CC2)c1ccccc1` (stereo not given), for which the activity change, negative = inhibition was inactive: 7.82%.

For `CCC(=O)N1C2C3N(C(=O)CC)C1C1N(C(=O)CC)C(C(N1C(=O)CC)N3C(=O)CC)N2C(=O)CC`, the activity change, negative = inhibition is inactive: 6.09%.

As to `COC(=O)c1cc2c(s1)N=C(c1ccccc1)N(C)P2(=O)N1CCOCC1` (stereo not given), the activity change, negative = inhibition is inactive: 12.1%.

Turning to `CC(=O)NC(SC(=S)N(CC(C)C)CC(C)C)C(Cl)(Cl)Cl` (stereo not given), the activity change, negative = inhibition was inactive: 7.19%.

For `Cc1ccc(OP(=O)(Nc2ccccn2)Oc2ccc(C)cc2)cc1`, the activity change, negative = inhibition was inactive: -2.26%.

`O=P(Nc1nc2ccccc2s1)(c1ccccc1)c1ccccc1`: the activity change, negative = inhibition was inactive: -3.22%.

For `C[C@H]1OP(=O)(Oc2ccccc2)[C@H](O)[C@H](O)[C@H]1N=[N+]=[N-]` (stereo not given in full), the activity change, negative = inhibition is inactive: -12.7%.

Regarding `O=P(Nc1ccccn1)(c1ccc(Br)cc1)c1ccc(Br)cc1`, the activity change, negative = inhibition entry was “inactive”.

Take `CN(C)C1(CNC(=O)c2ccc(Cl)c(S(N)(=O)=O)c2)CCCCC1`: the activity change, negative = inhibition is inactive: 4.04%.

For `COc1ccc(N)c([N+](=O)[O-])c1[N+](=O)[O-]`, the activity change, negative = inhibition was inactive: -13.5%.

For `O=C(OC1CN2CCC1CC2)c1cccc(Cl)c1` (stereo not given), the activity change, negative = inhibition is inactive: 11.1%.

On to `C(Cc1nn[nH]n1)Cc1nn[nH]n1`, for which the activity change, negative = inhibition is inactive: 3.74%.

As to `Nc1ccc([As](=O)(O)c2ccc([N+](=O)[O-])cc2)cc1`, the activity change, negative = inhibition is inactive: -7.81%.

For the compound `O=[As](O)(c1ccccc1)c1ccc(O)cc1`, the activity change, negative = inhibition is inactive: -11.8%.

With `O=[N+]([O-])c1ccc(O)c(/C=N/Nc2ccc([N+](=O)[O-])cc2[N+](=O)[O-])c1`, the activity change, negative = inhibition is inactive: -1.14%.

`CC(=O)NC(SC(=S)N(C)C)C(Cl)(Cl)Cl` (stereo not given): the activity change, negative = inhibition was inactive: -4.33%.

For the compound `O=[N+]([O-])c1ncn(CCn2cnc([N+](=O)[O-])n2)n1`, the activity change, negative = inhibition entry is “inactive”.

With `c1nnnn1CCn1cnnn1`, the activity change, negative = inhibition was inactive: -1.65%.

As to `CC(C)C(=O)NC(Sc1ccccc1)C(Cl)(Cl)Cl` (stereo not given), the activity change, negative = inhibition was inactive: -4.65%.

In the case of `O=P(Nc1nccs1)(c1ccccc1)c1ccccc1`, the activity change, negative = inhibition is inactive: 9.8%.

Take `Cc1ccc(NP(=O)(Oc2ccccc2)Oc2ccccc2)nc1`: the activity change, negative = inhibition is inactive: -0.727%.

Regarding `CCc1nc2c(n1)c1c(non1O)c1c2no[n+]1[O-]`, the activity change, negative = inhibition result was “inactive”.

`O=[N+]([O-])c1cc([N+](=O)[O-])c(CCNc2ccccc2)c([N+](=O)[O-])c1`: the activity change, negative = inhibition is inactive: 0.91%.

Regarding `O=[N+]([O-])c1cccc2n[nH]nc12`, the activity change, negative = inhibition is inactive: -3.21%.

Take `CC(=O)N1C2C3N(C(C)=O)C1C1N(C(C)=O)C(C(N1C(C)=O)N3C(C)=O)N2C(C)=O`: the activity change, negative = inhibition result was “inactive”.

For `COc1ccc(C2=NCC(CBr)S2)cc1` (stereo not given), the activity change, negative = inhibition is inactive: -6.47%.

Regarding `CC1CCN(C(=O)Oc2c(Cl)cc(Cl)c3cccnc23)CC1`, the activity change, negative = inhibition is inactive: 0.983%.

Turning to `c1cc(-c2nn[nH]n2)ccc1-c1nn[nH]n1`, the activity change, negative = inhibition is inactive: -1.06%.

In the case of `CC(C)c1nc(Nc2ccccc2)n(P(=O)(N(C)C)N(C)C)n1`, the activity change, negative = inhibition was inactive: -9.52%.

Turning to `CC(C)=N/N=C(\N)N[N+](=O)[O-]`, the activity change, negative = inhibition entry is “inactive”.

In the case of `CN(C)C(=O)OCCc1n(C)cc[n+]1C`, the activity change, negative = inhibition is inactive: 4.25%.

As to `CCN(/C(=N/P(=O)(N1CCOCC1)N1CCOCC1)N1CCOCC1)c1ccc(OC)cc1`, the activity change, negative = inhibition is inactive: -1.39%.

For `Nc1ccc([As](=O)(O)c2ccc(N)cc2)cc1`, the activity change, negative = inhibition is inactive: 21.5%.

On to `O=C(Nc1cc([As](=O)(O)O)ccc1O)c1ccccc1`, for which the activity change, negative = inhibition is inactive: -2.25%.

As to `O=P1(N(CCCl)CCCl)OCCCS1` (stereo not given), the activity change, negative = inhibition was inactive: 2.46%.

In the case of `O=C(O)CNc1ccc([As](=O)(O)O)cc1`, the activity change, negative = inhibition entry is “inactive”.

Turning to `COC(=O)C1(C)COP(=O)(Nc2ccccc2)OC1` (stereo not given), the activity change, negative = inhibition was inactive: -0.454%.

Turning to `O=[N+]([O-])c1cccc(NC2=NCC(CBr)S2)c1` (stereo not given), the activity change, negative = inhibition was inactive: 0.777%.

As for `O=[N+]([O-])c1ncn(CCn2ncnc2[N+](=O)[O-])n1`, the activity change, negative = inhibition was inactive: -2.28%.

`CC(C)(C)C(=O)NC(Sc1ccncn1)C(Cl)(Cl)Cl` (stereo not given): the activity change, negative = inhibition is inactive: -3.21%.

Regarding `Cc1cc(SC(NC(=O)c2ccc(F)cc2)C(Cl)(Cl)Cl)ncn1` (stereo not given), the activity change, negative = inhibition was inactive: -7.93%.

Regarding `CCOP(=O)(Nc1ccccc1)OCC`, the activity change, negative = inhibition is inactive: -9.64%.

Take `Cc1ccc(NP(=O)(Oc2ccccc2F)Oc2ccccc2F)nc1`: the activity change, negative = inhibition was inactive: 6.77%.

Regarding `CN(C(=O)Cc1ccc(Cl)c(Cl)c1)[C@H]1CCCC[C@@H]1N1CCCC1`, the activity change, negative = inhibition is inactive: -11.1%.
